Reference: patent publication US6110888A, “Substituted phenols as fragrance, flavor and antimicrobial compounds” (Takasago International Corporation, priority 1999, dated 2000)

Test: Odor qualities by expert panel of perfumers
Settings: neat or in solution on perfume blotters; approximately 25 perfumers

## CCCc1cc(C(C)(C)C)ccc1O [Example 6, Ortho Propyl Para tert-Butyl Phenol]
  Odor Qualities: woody, rubbery, floral

## C=CCc1cc(C(C)(C)C)ccc1O [Example 5, Ortho Allyl Para tert-Butyl Phenol]
  Odor Qualities: leathery, woody, herbal
